Pooled drug test results. Numbers come from NIAID ChemDB, via PubChem.

Shared fields: growth or infection tests; organism: Mycobacterium tuberculosis

Two numbers with a dash give a range or band. MIC50, MIC90 and the like: level of inhibition, or share of isolates inhibited. Percent inhibition refers to the dose given; in toxicity tests it is the harm to the cells. Lines come from different laboratories, so protocols vary. MIC bound: limit read from a one-dose screen. Blank or dashed fields: not listed here. ECn is the concentration giving n% inhibition of infection, replication or growth.

smiles	tested at	measure	method	strain	result
Cc1c(Cl)cccc1NC(=O)N/N=C/c1ccc([N+](=O)[O-])cc1		EC50			>6.25 µg/mL
ClCc1c(-c2ccccc2)oc(-c2ccccc2)c1CCl		MIC bound	BACTEC	H37Rv	≤12.5 µg/mL
O=C(NN=Cc1ccc([N+](=O)[O-])cc1)c1ccncc1		MIC	resazurin	ATTC 27294	1.2 µg/mL
CCCCCCCCCCCCCCCOC(COC[C@H]1O[C@@H]2OC(C)(C)O[C@@H]2[C@H]2OC(C)(C)O[C@H]21)Cn1ccnc1[N+](=O)[O-]		MIC	agar	H37Rv	6.25 µg/mL
C[C@H](c1ccccc1)N1C/C(=C\c2ccc(Cl)cc2Cl)[C@@]2(ON=C(c3ccc(Cl)cc3)O2)[C@@]2(C1)ON=C(c1ccc(Cl)cc1)[C@@H]2c1ccc(Cl)cc1Cl		MIC		MDR-TB	0.48 µM
Cn1c2ccccc2c(=O)c2c(O)cc3c(c21)C=CC(C)(C)O3		MIC	BACTEC	H37Rv	≥12.5 µg/mL
O=C(Nc1ccc(Br)cc1)c1cccnc1Cl		MIC		H37Rv	>20 µg/mL
CCCCc1nnc2c3c(c4cc(Br)ccc4n12)-c1ccccc1C3=O	6.25 µg/mL	inhibition	BACTEC / radiometric	H37Rv	69%
CO[C@H]1/C=C/O[C@@]2(C)Oc3c(C)c(O)c4c(O)c(c(/C=N/N5CCN(Cc6ccccc6)CC5)c(O)c4c3C2=O)NC(=O)/C(C)=C\C=C\[C@H](C)[C@H](O)[C@@H](C)[C@@H](O)[C@@H](C)[C@H](OC(C)=O)[C@@H]1C		MIC		PZA-R	0.01 µg/mL
CN1CCC(=C2C3=C(CCc4ccccc42)SCC3)CC1		MIC		H37Rv	32 µg/mL
c1ccc(Cn2cnc3cncnc32)cc1		EC50	BACTEC	H37Rv	>12.5 µg/mL
Cc1ccc([C@H]2C(c3ccccc3)=NO[C@@]23CN([C@H](C)c2ccccc2)C/C(=C\c2cccc(C)c2)[C@@]32ON=C(c3ccccc3)O2)cc1		MIC		H37Rv	2.42 µM
NNC(=O)c1ccncc1		MIC	resazurin / absorbance	Clinical isolate 13 638	0.03 µg/mL
COc1c(N2CCNC(C)C2)c(F)cc2c(=O)c(C(=O)O)cn(C3CC3)c12		MIC90		5 isolates drug-resistant	0.031 µg/mL
CCN(CC)Cc1cc(Nc2nc(/C=C/c3ccc(Cl)cc3)nc(Cl)c2-c2ccc(Cl)cc2)ccc1O		MIC	resazurin	H37Rv	3.13 µg/mL
C[C@H](c1ccccc1)N1C/C(=C\c2ccccc2Cl)[C@@]2(ON=C(c3ccccc3)O2)[C@@]2(C1)ON=C(c1ccccc1)[C@@H]2c1ccccc1Cl		MIC		H37Rv	9.03 µM
O=C(N/N=C/c1cc(Cl)ccc1[N+](=O)[O-])c1ccncc1		MIC	resazurin	ATTC 27294	5 µg/mL
CN(C)C1C(=O)C(C(=O)NCNCCCO)=C(O)C2(O)C(=O)C3=C(O)c4c(O)cccc4C(C)(O)C3CC12		MIC bound	BACTEC	H37Rv	>12.5 µg/mL
Nc1nc(F)cc2c1ncn2[C@@H]1O[C@H](CO)[C@@H](O)[C@H]1O		MIC		SRICK1	>100 µg/mL
C=Cc1nc2cncnc2n1Cc1ccccc1		EC50	BACTEC	H37Rv	>12.5 µg/mL
C=C(C)[C@@H]1CC[C@]2(C(=O)O)CC[C@]3(C)C(CCC4[C@@]5(C)[C@@H](C(=O)O)[C@H](O)C(C)(C)[C@@H]5CC[C@]43C)C12		MIC			>200 µg/mL
CN1CCC(=C2c3ccccc3C=Cc3ccccc32)CC1		MIC		H37Ra	16 µg/mL
Oc1cc2c(cc1O)C1c3ccc(O)c(O)c3OCC1(O)C2	128 µg/mL	inhibition	BACTEC	H37Rv	65%
CC[C@@H](CO)NCCN[C@@H](CC)CO		MIC	agar	H37Rv	1.56 µg/mL
CC(=O)Nc1ccc(NC(=O)N/N=C/c2ccc(N(C)C)cc2)cc1		EC50			>6.25 µg/mL
Cc1c([N+](=O)[O-])ncn1C[C@H]1O[C@@H]2OC(C)(C)O[C@@H]2[C@H]2OC(C)(C)O[C@H]21		MIC	agar	H37Rv	3.13 µg/mL
C=C(C)[C@@H]1CC[C@]2(C)CCC3(C)[C@H](CC[C@@H]4[C@@]5(C)CC[C@H](O)C(C)(C)[C@@H]5CC[C@]43C)[C@@H]12		MIC			>200 µg/mL
CO[C@H]1/C=C/O[C@@]2(C)Oc3c(C)c(O)c4c(c3C2=O)C(=O)C(N2CCC(=NNS(=O)(=O)c3ccc(C)cc3)CC2)=C(NC(=O)/C(C)=C\C=C\[C@H](C)[C@H](O)[C@@H](C)[C@@H](O)[C@@H](C)[C@H](OC(C)=O)[C@@H]1C)C4=O		MIC		H37Rv	0.0025 µg/mL
CN(C)C(=O)OC1(C)c2ccccc2C2c3cc(Br)ccc3-n3nnnc3C21	6.25 µg/mL	inhibition	BACTEC / radiometric	H37Rv	29%
Cc1cc2c(ncn2[C@@H]2O[C@H](CO)[C@@H](O)[C@H]2O)c(C)n1		MIC		SRICK1::ADOK	10–100 µg/mL
COc1ccc(/C=C2/CSCC3=C2NC(=S)NC3c2ccc(OC)c(OC)c2OC)c(OC)c1OC	12.5 µg/mL	inhibition	BACTEC	H37Rv	6%
CON=C1CCN(C2=C3NC(=O)/C(C)=C\C=C\[C@H](C)[C@H](O)[C@@H](C)[C@@H](O)[C@@H](C)[C@H](OC(C)=O)[C@H](C)[C@@H](OC)/C=C/O[C@@]4(C)Oc5c(C)c(O)c(c(c5C4=O)C2=O)C3=O)CC1		MIC		H37Rv	0.00125 µg/mL
C[C@H](c1ccccc1)N1CC(=Cc2cccc3ccccc23)[C@]2(ON=C(c3ccccc3)O2)C2(C1)ON=C(c1ccccc1)[C@H]2c1cccc2ccccc12		MIC		H37Rv	4.36 µM
COc1c(O)cc2oc3cc(O)c(CC=C(C)C)c(O)c3c(=O)c2c1CC=C(C)C		MIC		ETA-R	12.8 µg/mL
CC(C)C1CC(C)(O)N=C(c2ccccc2)S1		EC50		H37Rv	>6.25 µg/mL
C=C(OCC)c1nc(/C=C/c2ccccc2)nc2c1ncn2Cc1ccccc1		EC50	BACTEC	H37Rv	>12.5 µg/mL
Cc1ccnc(NC(=O)c2cccnc2Cl)c1		MIC		H37Rv	>20 µg/mL
CC1(O)c2ccccc2-c2c1c1nncn1c1ccc(Br)cc21	6.25 µg/mL	inhibition	BACTEC / radiometric	H37Rv	66%
CN(C)CCC=C1c2ccccc2CCc2ccccc21		MIC		H37Ra	32 µg/mL
Cl.Cn1c2ccccc2c(=O)c2cc(NC(=O)CCCCC(=O)Nc3ccc4c(c3)c(=O)c3ccccc3n4C)ccc21		MIC bound	BACTEC	H37Rv	>12.5 µg/mL
Cc1cc[n+]2c(c1)[nH]c(=O)c1cccnc12		MIC		H37Rv	>20 µg/mL
Cc1ccc(C(CCN(C)C)c2ccccc2)cc1		MIC		H37Ra	32 µg/mL
O=C(N/N=C/c1cccc([N+](=O)[O-])c1)c1ccncc1		MIC	resazurin	ATTC 27294	0.5 µg/mL
COC(=O)c1cccc2c1Oc1ccccc1S2	12.5 µg/mL	inhibition	BACTEC	H37Rv	25%
C=C(C)[C@@H]1CC[C@]2(C(=O)O)CC[C@]3(C)C(CCC4[C@@]5(C)C(C=O)=CC(C)(C)[C@@H]5CC[C@]43C)C12		MIC			100 µg/mL
CC(C)c1ccc(C2=NO[C@@]3(O2)/C(=C\c2ccc(Cl)cc2Cl)CN([C@H](C)c2ccccc2)CC32ON=C(c3ccc(C(C)C)cc3)[C@H]2c2ccc(Cl)cc2Cl)cc1		MIC		H37Rv	7.44 µM
O=C1c2ccccc2-c2c1c1nnc(-c3ccccc3)n1c1ccc(Br)cc21	6.25 µg/mL	inhibition	BACTEC / radiometric	H37Rv	15%
CNn1c(-c2ccccc2)n[nH]c1=O	12.5 µg/mL	inhibition	BACTEC	H37Rv	0%
C[C@H](c1ccccc1)N1CC(=Cc2cccc3ccccc23)[C@]2(ON=C(c3ccc(Cl)cc3)O2)C2(C1)ON=C(c1ccc(Cl)cc1)[C@H]2c1cccc2ccccc12		MIC		H37Rv	1.98 µM
O=C(NNc1ccc([N+](=O)[O-])cc1)c1cccnc1Cl		MIC		H37Rv	>20 µg/mL
CCCCCc1nnc2c3c(c4cc(Br)ccc4n12)-c1ccccc1C3=O	6.25 µg/mL	inhibition	BACTEC / radiometric	H37Rv	55%
C[C@H](c1ccccc1)N1C/C(=C\c2ccccc2Br)[C@@]2(ON=C(c3ccccc3)O2)[C@@]2(C1)ON=C(c1ccccc1)[C@@H]2c1ccccc1Br		MIC		H37Rv	8.06 µM
Clc1ccc(Cn2c(CN3CCCC3)nc3ccccc32)cc1		MIC		H37Ra	32 µg/mL
Cc1c(Cl)cccc1NC(=O)N/N=C/c1ccccc1O		EC50			>6.25 µg/mL
COc1ccc(C(OCCN(C)C)c2ccccc2)cc1		MIC		H37Ra	64 µg/mL
COc1nc2ccc(Br)cc2cc1[C@@H](c1ccccc1)[C@@](O)(CCN(C)C)c1cccc2ccccc12		MIC	resazurin / fluorescence	H37Rv	0.1 µg/mL
Cc1ccc(NC(=O)c2cccnc2Cl)nc1		MIC		H37Rv	>20 µg/mL
CCCCCC1CC(C)(O)N=C(c2ccccc2)S1		EC50		H37Rv	<6.25 µg/mL
CC(C)N=c1cc2n(-c3ccc(Cl)cc3)c3ccccc3nc-2cc1Nc1ccc(Cl)cc1		MIC		INH-r	≤0.1 µg/mL
CN(C)CCOC(c1ccccc1)c1ccccc1		MIC		H37Ra	64 µg/mL
O=C(O)c1cnccn1	12.5 µg/mL	inhibition		H37Ra	7%
C[C@H](c1ccccc1)N1C/C(=C/c2ccc(Cl)cc2Cl)[C@]2(ON=C(c3ccc(Cl)cc3)O2)C2(C1)ON=C(c1ccc(Cl)cc1)[C@H]2c1ccc(Cl)cc1Cl		MIC		MDR-TB	0.95 µM
CCC1(O)CCSC(c2ccccc2)=N1	6.25 µg/mL	inhibition		H37Rv	76%
O=C1NC(=O)C(c2ccc(Br)c3ccccc23)=C1O		MIC bound	BACTEC	H37Rv	>12.5 µg/mL
CC1(C)O[C@H]2[C@@H](O1)[C@@H](COCC(Cn1ccnc1[N+](=O)[O-])OCc1ccc(OC(F)(F)F)cc1)O[C@@H]1OC(C)(C)O[C@@H]12		MIC	agar	H37Rv	3.13 µg/mL
Cc1nc(Cl)nc2c1C(=O)Nc1ccccc1N2	12.5 µg/mL	inhibition	BACTEC	H37Rv	0%
CO[C@H]1/C=C/O[C@@]2(C)Oc3c(C)c(O)c4c(c3C2=O)C(=O)C(N2CCC(=NNc3ccc([N+](=O)[O-])cc3[N+](=O)[O-])CC2)=C(NC(=O)/C(C)=C\C=C\[C@H](C)[C@H](O)[C@@H](C)[C@@H](O)[C@@H](C)[C@H](OC(C)=O)[C@@H]1C)C4=O		MIC		H37Rv	0.0025 µg/mL
N[C@H](C(=O)O)[C@H]1ON=C(Cl)[C@@H]1O	12.5 µg/mL	inhibition	BACTEC	H37Rv	98%
C=C(OCC)c1nc2c(Cl)ncnc2n1Cc1ccccc1		EC50	BACTEC	H37Rv	>12.5 µg/mL
N/C(=N\Nc1c(O)[nH]c2ccccc12)N[N+](=O)[O-]	12.5 µg/mL	inhibition	BACTEC	H37Rv	14%
CCCc1ccc2oc(-c3ccc(O)c(OC)c3)c(C)c2c1		MIC	resazurin / absorbance	Clinical isolate 57	7.8 µg/mL
CCCN1CCN(c2ccc([N+](=O)[O-])c3no[n+]([O-])c23)CC1		MIC bound	resazurin	H37Rv	<6.25 µg/mL
CC(=O)Nc1ccc(NC(=O)N/N=C/c2ccc([N+](=O)[O-])cc2)cc1		EC50			<6.25 µg/mL
C/C=C/c1ccc2oc(-c3ccc(O)c(OC)c3)c(C)c2c1		MIC	resazurin / absorbance	Clinical isolate 11	7.8 µg/mL
CC(CNC(=O)C12CC3CC(CC(C3)C1)C2)NC(=O)C12CC3CC(CC(C3)C1)C2	6.25 µg/mL	inhibition	resazurin	H37Rv	32%
Nc1nc(F)c(F)c2c1NCN2[C@@H]1O[C@H](CO)[C@@H](O)[C@H]1O		MIC		H37Ra	>100 µg/mL
O=c1[nH][nH]c(=O)c2c1nc(SCc1ccc(Cl)cc1Cl)n2Cc1ccccc1	12.5 µg/mL	inhibition	BACTEC	H37Rv	0%
Cc1c(Cl)cccc1NC(=O)N/N=C/c1cccc([N+](=O)[O-])c1		EC50			<6.25 µg/mL
CCC(C)c1c(NC(=O)c2ccccc2)o[nH]c1=O		MIC bound	BACTEC	H37Rv	>12.5 µg/mL
Cc1cccc(NC(=O)c2cccnc2Cl)n1		MIC		H37Rv	>20 µg/mL

Again, the opening 9 rows:

smiles,tested at,measure,method,strain,result
Cc1c(Cl)cccc1NC(=O)N/N=C/c1ccc([N+](=O)[O-])cc1,,EC50,,,>6.25 µg/mL
ClCc1c(-c2ccccc2)oc(-c2ccccc2)c1CCl,,MIC bound,BACTEC,H37Rv,≤12.5 µg/mL
O=C(NN=Cc1ccc([N+](=O)[O-])cc1)c1ccncc1,,MIC,resazurin,ATTC 27294,1.2 µg/mL
CCCCCCCCCCCCCCCOC(COC[C@H]1O[C@@H]2OC(C)(C)O[C@@H]2[C@H]2OC(C)(C)O[C@H]21)Cn1ccnc1[N+](=O)[O-],,MIC,agar,H37Rv,6.25 µg/mL
C[C@H](c1ccccc1)N1C/C(=C\c2ccc(Cl)cc2Cl)[C@@]2(ON=C(c3ccc(Cl)cc3)O2)[C@@]2(C1)ON=C(c1ccc(Cl)cc1)[C@@H]2c1ccc(Cl)cc1Cl,,MIC,,MDR-TB,0.48 µM
Cn1c2ccccc2c(=O)c2c(O)cc3c(c21)C=CC(C)(C)O3,,MIC,BACTEC,H37Rv,≥12.5 µg/mL
O=C(Nc1ccc(Br)cc1)c1cccnc1Cl,,MIC,,H37Rv,>20 µg/mL
CCCCc1nnc2c3c(c4cc(Br)ccc4n12)-c1ccccc1C3=O,6.25 µg/mL,inhibition,BACTEC / radiometric,H37Rv,69%
CO[C@H]1/C=C/O[C@@]2(C)Oc3c(C)c(O)c4c(O)c(c(/C=N/N5CCN(Cc6ccccc6)CC5)c(O)c4c3C2=O)NC(=O)/C(C)=C\C=C\[C@H](C)[C@H](O)[C@@H](C)[C@@H](O)[C@@H](C)[C@H](OC(C)=O)[C@@H]1C,,MIC,,PZA-R,0.01 µg/mL